Here are results for three compounds from publication PMC10324308, “Biodegradation of Amphipathic Fluorinated Peptides Reveals a New Bacterial Defluorinating Activity and a New Source of Natural Organofluorine Compounds” (Environmental Science & Technology, 2023).

For data set [1], the system named is soil microbial consortium (SM). Kind of data set: Biodegradation of fluorinated amino acids by growing and resting cells of soil bacteria. The class given is cell-based, garden soil bacteria. Conditions: 48 h; for degree of amino acid defluorination (rank order): comparison of relative 19F NMR resonance heights.
In data set [2] the test system is cell-free extract of the microbial consortium. Kind of data set: Defluorinating activity in cell-free extract of the soil microbial consortium. Conditions: for fluoride release in cell-free extract of soil consortium: 0.2 mg substrate in 1 mL cell-free extract (20 mM HEPES, pH 7.0), 6 h, 19F NMR, boiled extract as control. The data set is classed as biochemical, garden soil bacteria.

Entries after “also recorded” stand apart in the source; their conditions may differ.

Regarding `N[C@@H](CC(F)(F)F)C(=O)O` [TfeGly, (2S)-4,4,4-trifluoroethylglycine], in data set [1] (19F NMR), the “other fluorometabolites from amino acid degradation by soil microbes” value was “other fluorometabolites produced”. Further, in data set [1], the “degree of amino acid defluorination (rank order)” value was “MfeGly > DfeGly > TfeGly”. Also, in data set [2], the “fluoride release in cell-free extract of soil consortium” value is on record as “not defluorinated; also recorded: little or no fluoride release”.
Taken in the same sequence, the figures for `N[C@@H](CC(F)F)C(=O)O` [DfeGly, (2S)-4,4-difluoroethylglycine] were “other fluorometabolites produced”, “MfeGly > DfeGly > TfeGly” and “a small fluoride signal was observed; also recorded: little or no fluoride release”.
On to `N[C@@H](CCF)C(=O)O` [MfeGly, (2S)-4-monofluoroethylglycine], for which the “degradation of amino acid by soil microbes” value in data set [1] (19F NMR, only the fluoride resonance observed) was “completely degraded”. Besides, the “degree of amino acid defluorination (rank order)” value in data set [1] is reported as “MfeGly > DfeGly > TfeGly”. Moreover, the “fluoride release in cell-free extract of soil consortium” value in data set [2] was “readily detected”. Moreover, the “product of defluorination in cell-free extract of soil consortium” value in data set [2] (MfeGly with active vs boiled cell-free extract, GC-MS after silylation) is reported as “homoserine”.
